Measured values from US20160177369.

Biological target: his6-tagged recombinant CFP-SNAP-25-YFP chimera protein (CFP-SNAP-25 (141-206)-YFP), purified from E. coli, P60881

B1: botulinum neurotoxin E (BoNT/E) (protein)
chain 1: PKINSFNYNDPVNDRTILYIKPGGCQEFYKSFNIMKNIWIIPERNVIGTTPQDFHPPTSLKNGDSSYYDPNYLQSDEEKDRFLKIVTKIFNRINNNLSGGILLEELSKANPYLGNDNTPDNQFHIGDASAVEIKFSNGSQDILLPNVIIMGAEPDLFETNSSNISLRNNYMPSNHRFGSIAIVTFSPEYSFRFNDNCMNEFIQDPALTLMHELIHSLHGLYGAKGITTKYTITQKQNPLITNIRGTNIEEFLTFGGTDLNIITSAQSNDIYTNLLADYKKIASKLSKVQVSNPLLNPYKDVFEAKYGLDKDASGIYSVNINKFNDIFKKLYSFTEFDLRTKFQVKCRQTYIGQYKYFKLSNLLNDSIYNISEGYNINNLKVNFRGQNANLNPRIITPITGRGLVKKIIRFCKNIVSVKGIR
chain 2: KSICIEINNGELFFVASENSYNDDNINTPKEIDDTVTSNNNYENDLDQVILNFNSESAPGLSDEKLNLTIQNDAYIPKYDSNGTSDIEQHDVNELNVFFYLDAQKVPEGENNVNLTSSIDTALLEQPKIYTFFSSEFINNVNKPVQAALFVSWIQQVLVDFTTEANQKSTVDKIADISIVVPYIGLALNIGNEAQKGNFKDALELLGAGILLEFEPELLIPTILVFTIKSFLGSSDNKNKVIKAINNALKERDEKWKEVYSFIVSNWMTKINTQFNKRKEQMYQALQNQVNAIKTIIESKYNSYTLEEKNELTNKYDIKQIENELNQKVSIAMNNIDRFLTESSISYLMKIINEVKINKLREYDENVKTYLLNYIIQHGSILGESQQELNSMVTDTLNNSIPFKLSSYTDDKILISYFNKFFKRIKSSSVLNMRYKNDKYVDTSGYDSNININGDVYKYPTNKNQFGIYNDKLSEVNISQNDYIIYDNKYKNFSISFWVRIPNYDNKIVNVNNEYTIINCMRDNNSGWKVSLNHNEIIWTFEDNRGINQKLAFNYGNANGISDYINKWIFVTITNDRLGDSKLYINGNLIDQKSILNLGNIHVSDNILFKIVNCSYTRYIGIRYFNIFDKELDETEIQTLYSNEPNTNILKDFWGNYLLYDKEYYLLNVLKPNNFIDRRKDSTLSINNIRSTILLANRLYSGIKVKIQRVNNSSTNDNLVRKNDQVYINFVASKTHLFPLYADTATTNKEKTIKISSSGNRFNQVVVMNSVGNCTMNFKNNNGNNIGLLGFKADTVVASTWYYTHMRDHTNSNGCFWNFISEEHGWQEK
With B1 the “detection sensitivity, 16 hours against 4 hours incubation” value was “incubation for 16 hours slightly increased the detection sensitivity” and the “rate of FRET ratio decrease at various toxin concentrations, 300 nM sensor” value was “higher toxin concentration resulted in faster decrease of the FRET ratio”.
